Tags and fusion partners may be left off the protein sequences shown.
Molecular target: T1, TyrR (Escherichia coli DH5alpha) (UniProt P07604)
T1 sequence (looked up): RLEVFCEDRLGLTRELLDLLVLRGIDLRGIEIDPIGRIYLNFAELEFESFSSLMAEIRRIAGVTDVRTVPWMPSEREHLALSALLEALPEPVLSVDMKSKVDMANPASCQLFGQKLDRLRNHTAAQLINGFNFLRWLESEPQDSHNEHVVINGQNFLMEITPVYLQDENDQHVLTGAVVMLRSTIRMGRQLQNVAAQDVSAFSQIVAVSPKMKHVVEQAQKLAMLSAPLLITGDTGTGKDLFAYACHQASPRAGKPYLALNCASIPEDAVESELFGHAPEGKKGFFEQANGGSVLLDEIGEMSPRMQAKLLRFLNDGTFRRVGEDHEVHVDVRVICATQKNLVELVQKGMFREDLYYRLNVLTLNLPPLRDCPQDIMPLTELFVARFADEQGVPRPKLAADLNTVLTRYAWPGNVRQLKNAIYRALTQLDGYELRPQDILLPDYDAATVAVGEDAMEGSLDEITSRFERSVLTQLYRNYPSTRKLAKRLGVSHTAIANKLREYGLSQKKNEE
Assay: EMSA
Conditions: 14 nM TyrR, 0.1 mM phenylalanine, 0.1 mM ATP, 3 mM Mg acetate, TyrR EMSA: 50 mM Tris-HCl pH 7.8, 50 mM NaCl, 0.1 mM EDTA, 0.1 mM DTT, 25 ug/mL BSA, 0.1 mM Phe, ~15 nM DNA, 37 C 30 min, recombinant protein, residues 2-513, protein details: N-terminal His6, probe letters rebuilt from the primers and the genome

GAATTCATAAAACCTCGTGTATGGTGCGCTGTTTATTCATGCCGCGCTTCTTTTGAACGATGCAGTAGTGCGTGTGTAAGTTTGCAATTCCGCCTTTTGTATTGATTTATTTACAGTGAAGTTTTATTAAATATCACTATCACTCTTTTGTCTTGGTAAGAATAATGGTATGTGACTGCGAATGCACCTGCTTTGTGCAGGGGTGATGACGAGTTGCGTAAAAAGAAAGCACTTGTAAACCCTTTTAGCATTACTCACTTTATTTTGCATAGCATGTGATGTGCGGAGAAATCTTAGCAGTGAGCAGACCAATAAATAGAATATTCAGAACGGTGTTATTTTATTGACATCGTCAGCGGGGGAGGCGTTTAATTTATATTCGGATGTCGTAAAGCTTAA (double strand) [wt aroP-usp intergenic fragment (403 bp)]
binding result: binds

Reference: paper PMC7142922
